Data source: PubChem BioAssay AID1259414 (Drosophila RNAi Screening Center, 2018)
Screen: 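Fly genes that alter Wolbachia amount inside host cells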 (primary screen). Cells: Drosophila JW18 cells infected with Wolbachia. Reagent: long dsRNA against Drosophila genes, 0.25 µg dsRNA per well of a 384-well plate. Duration: 5 days. Treatment: cells persistently infected with Wolbachia before knock-down; no added drug. Measurement: 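Imaged fluorescence in situ signal for Wolbachia 23S rRNA per DAPI-counted host cell, given as a robust z-score within each plate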. Direction: Wolbachia per cell robust z: higher = more Wolbachia per host cell than the plate typical. Active means: 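Hit when robust z is 1.5 or more, or -1.5 or less, in at least two of three replicates; excludes dsRNAs with several or no targets, genes not expressed in JW18 and well A1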.
The screen tested about 24,000 reagents; shown is a random part of those that have a named target and a result. Of all reagents, about 1,210 (5%) were called active. 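Inactive calls also include excluded dsRNAs with several or no targets, genes unexpressed in JW18, and well A1, regardless of score.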 Entries without a mark were called inactive. Reagent sequences are not shown.

| gene knocked down | amplicon | Wolbachia per cell robust z, rep 1 | Wolbachia per cell robust z, rep 2 | Wolbachia per cell robust z, rep 3 |
| --- | --- | --- | --- | --- |
| CG10737 (GeneID 37202) | DRSC05999 | -0.879 | 0.598 | 1.03 |
| CG10737 (GeneID 37202) | DRSC26112 | -0.5 | -0.103 | -6.92 |
| CG15155 (GeneID 35087) | DRSC02456 | -3.63 | -1.52 | -1.42 |
| kirre (GeneID 31292) | DRSC18785 | 0.0492 | -0.526 | -0.601 |
| kirre (GeneID 31292) | DRSC24733 | 0.211 | 0.0507 | -0.562 |
| kirre (GeneID 31292) | DRSC40552 | -2.32 | -0.141 | -0.398 |
| lncRNA:CR32657 (GeneID 3772397) | DRSC19403 | -0.111 | -1.08 | -1.33 |
| lncRNA:CR32657 (GeneID 3772397) | DRSC25753 | -2.44 | -0.474 | -0.0814 |
| Ip259 (GeneID 34419) | DRSC03352 | 0.696 | 0.826 | 1.57 |
| CG13476 (GeneID 39602) | DRSC10019 | -0.82 | -1.37 | -0.759 |
| Nep5 (GeneID 43255) | DRSC16004 | -0.0401 | 1.73 | -0.956 |
| CG32551 (GeneID 318085) | DRSC19259 | -0.398 | 0.192 | 0.767 |
| CG9948 (GeneID 38757) | DRSC11104 | -0.725 | -2.75 | 0.727 |
| ppk24 (GeneID 43702) | DRSC15093 | 0.635 | 0.708 | -5.48 |
| Mur82C (GeneID 40574) | DRSC12011 | -0.833 | -1.69 | -2.84 |
| Mur82C (GeneID 40574) | DRSC12212 | 0.732 | 1.55 | 0.803 |
| Mur82C (GeneID 40574) | DRSC23420 | 0.249 | -8.88 | 0.512 |
| Mur82C (GeneID 40574) | DRSC39063 | 0.666 | 0.0207 | 0.00348 |
| CG32533 (GeneID 32933) | DRSC19443 | -0.104 | -7.91 | -1.26 |
| CG32533 (GeneID 32933) | DRSC19553 | -0.192 | -0.537 | 0.0157 |
| CG32533 (GeneID 32933) | DRSC24560 | -0.857 | 0.872 | -1.75 |
| CG32533 (GeneID 32933) | DRSC39093 | -0.0732 | -5.68 | -0.364 |
| CG13204 (GeneID 36227) | DRSC06328 | 0.186 | 0.932 | 1.35 |
| CG13204 (GeneID 36227) | DRSC27988 | -0.0511 | -0.814 | 1 |
| CG30345 (GeneID 246553) | DRSC05144 | -0.108 | -0.0984 | 0.499 |
| CG42766 (GeneID 10178835) | DRSC41425 | 0.657 | -0.565 | -1.43 |

Records above whose gene name starts with M or m:
| gene knocked down | amplicon | Wolbachia per cell robust z, rep 1 | Wolbachia per cell robust z, rep 2 | Wolbachia per cell robust z, rep 3 |
| --- | --- | --- | --- | --- |
| Mur82C (GeneID 40574) | DRSC12011 | -0.833 | -1.69 | -2.84 |
| Mur82C (GeneID 40574) | DRSC12212 | 0.732 | 1.55 | 0.803 |
| Mur82C (GeneID 40574) | DRSC23420 | 0.249 | -8.88 | 0.512 |
| Mur82C (GeneID 40574) | DRSC39063 | 0.666 | 0.0207 | 0.00348 |

Additional records:
| gene knocked down | amplicon | Wolbachia per cell robust z, rep 1 | Wolbachia per cell robust z, rep 2 | Wolbachia per cell robust z, rep 3 |
| --- | --- | --- | --- | --- |
| CG3124 (GeneID 37688) | DRSC23062 | 0.178 | 0.999 | 0.961 |
| CG3124 (GeneID 37688) | DRSC26288 | 0.17 | 1.07 | -0.854 |
| Tbh (GeneID 31718) | DRSC18723 | -1.15 | 0.93 | -0.507 |
| Tbh (GeneID 31718) | DRSC26690 | 1.69 | 0.0476 | -0.372 |
| CG5550 (GeneID 36883) | DRSC06943 | -1.29 | -0.824 | 0.701 |
| CG5550 (GeneID 36883) | DRSC29735 | -2.5 (active) | 0.265 | -10.8 |
| CG10474 (GeneID 37211) | DRSC05993 | 1.35 | 1.55 | -1.8 |
| PCNA (GeneID 37290) | DRSC07653 | 1.63 | 0.564 | -0.167 |
| ND-19 (GeneID 37946) | DRSC04404 | 0.0919 | -0.172 | 0.281 |
| ND-19 (GeneID 37946) | DRSC27604 | -7.82 | -0.829 | -0.477 |
| PIG-U (GeneID 34185) | DRSC02193 | -0.969 | -0.907 | -0.615 |
| PIG-U (GeneID 34185) | DRSC28900 | -1.38 | 0.583 | -1.19 |
| RpS21 (GeneID 33487) | DRSC00833 | -0.574 | 0.649 | 0.168 |
| RpS21 (GeneID 33487) | DRSC28234 | 1.75 (active) | 4.79 | 3.85 |
| HPS4 (GeneID 37009) | DRSC06906 | -2.64 (active) | 0.668 | -1.87 |
| CG17712 (GeneID 33356) | DRSC00266 | 0.59 | 0.734 | 0.0462 |
| isoQC (GeneID 40270) | DRSC11790 | 0.903 | 0.171 | 0.784 |
| isoQC (GeneID 40270) | DRSC28241 | -5.26 | -0.265 | -0.0363 |
| Osi14 (GeneID 40770) | DRSC12368 | 0.306 | -1.51 | -0.0966 |
| Osi14 (GeneID 40770) | DRSC26397 | 1.03 | 0.737 | -0.838 |
